The values that follow come from patent publication US10073089B2 (priority 2011, dated 2018).

Test [1] relates to Torpedo nAChR. The test is described as follows: nonradioactive ligand-receptor binding displacement test on ELISA microplate (biotin-α-BgTx displacement from immobilized Torpedo electrocyte membranes). To be noted: for IC90: concentration required to inhibit 90% of biotin-α-BgTx binding to Torpedo nAChRs; for pIC50: read-out: IC50 (95% CI), 50% inhibition of binding between biotin-α-BgTx and Torpedo nAChRs, Table 1; for IC50: read-out: Sensitivity (concentration in nM), Method of the invention, Table 3; for inhibition of the biotin-α-BgTx binding with Torpedo nAChR (in words): serial dilutions of standard toxin.

Test [2] has as its system torpedo electrocyte membranes. The settings on record: read-out: Sensitivity (concentration in nM), Arâoz et al., cited from earlier work.

pIC50: −log10 of the molar value. Like-named read-outs stand apart in the source and are kept apart here.

In general, IC90 refers to the concentration needed for an effect of 90%. As usually defined, the pIC50 is −log10 of the IC50, conventionally taken in molar units. As for 13,19-didesmethyl spirolide C, in test [1], the IC90 is 0.02 µM, the negative logarithm of the IC50 (pIC50) is 8.51 and the IC50 was found to be 3.1 nM.

Consider 13-desmethyl spirolide C, for which, in test [1], the IC90 was 0.06 µM; the negative-log IC50 (pIC50) is 8.16; the IC50 was 6.84 nM; the “inhibition of the biotin-α-BgTx binding with Torpedo nAChR (in words)” value (“inhibition of the biotin-α-BgTx binding” for short) was “inhibit the interaction between α-BgTx and Torpedo nAChR in a concentration-dependent manner”. Moreover, the “inhibition of the biotin-α-BgTx binding” value in test [1] (listed as 13-desmethyl SPX C) is “competitively inhibit in a dose-dependent manner”.

As to anatoxin-a, in test [1], the concentration for an effect of 90% (IC90) is 2 µM; the pIC50 was 7.16; the IC50 was determined as 68.8 nM; the “inhibition of the biotin-α-BgTx binding” value was “inhibit the interaction between α-BgTx and Torpedo nAChR in a concentration-dependent manner”. Besides, the IC50 in test [2] (chemiluminescence detection (CHEM)) is 62 nM. For the same substance, in test [2] (visual reading (VISUAL)), the IC50 was 17 nM.

Turning to d-tubocurarine, in test [1], the “inhibition of the biotin-α-BgTx binding” value is “inhibit the interaction between α-BgTx and Torpedo nAChR in a concentration-dependent manner”.

In the case of gymnodimine A, in test [1], the IC90 worked out at 2 µM; the pIC50 is 7.13; the IC50 was 74.2 nM; the “inhibition of the biotin-α-BgTx binding” value is “inhibit the interaction between α-BgTx and Torpedo nAChR in a concentration-dependent manner”.

With homoanatoxin-a, the “inhibition of the biotin-α-BgTx binding” value in test [1] is “inhibit the interaction between α-BgTx and Torpedo nAChR in a concentration-dependent manner”.

In the case of α-bungarotoxin, in test [1], the IC90 is 0.07 µM, the pIC50 was 9.57 and the “inhibition of the biotin-α-BgTx binding” value is reported as “competitively inhibit in a dose-dependent manner”. The “inhibition of the biotin-α-BgTx binding” value in test [1] (listed as α-bungarotoxin) is “inhibit the interaction between α-BgTx and Torpedo nAChR in a concentration-dependent manner”.
